In paper PMC6328579, “Post-exposure immunotherapy for two ebolaviruses and Marburg virus in nonhuman primates” (Nature Communications, 2019):

Target: EBOV GPΔTM Mayinga; residues 18–650 (wild type) (Ebola virus (EBOV), Mayinga, UniProt Q05320)
Experiment: ELISA
Conditions: both partners purified

B1: FVM04 (antibody, V domains shown)
VH: EVQLVQSGGGLVQPGGSMRLSCEASGLSLSDYFMHWVRQAQGKGLEWIGLIQTKAFTYKTEYPAAVKGRFTISRDDSKNTLYLQMSSLKPEDTALYYCIAVTPDFYYWGQGVLVTVSS
VL: DVVMTQSPSFLSASVGDRVTITCRASQDITINLNWFQHKPGKAPKRLIYVASRLERGVPSRFSGSGSGTEFTLTISSLQPEDFATYYCQQYNNYPLTFGPGTKLDIK
binding result: binds
